Measured values from several laboratories, pooled; numbers as filed in NIAID ChemDB.

Common to all: growth or infection tests; species: HIV-1; read by: syncytia; read-out: EC50

An empty or dashed field is not shown.

smiles	mutations	strain or isolate	cells	value
Nc1cc(OCCOCP(=O)(O)O)nc(N)n1	RT-S68G K70T V75I F77L K103N F116Y Q151M K219R	Clinical isolate L6.5	CEM	1.85 µg/mL
O=C1N(Cc2ccccc2)c2cscc2S(=O)(=O)N1Cc1ccccc1	-	MN	MT-4	2.3 µM
CC(C)(C)[Si](C)(C)OC[C@H]1O[C@@H](n2cnc3c(=O)[nH]cnc32)[C@H](O[Si](C)(C)C(C)(C)C)C12OS(=O)(=O)C=C2N	-	IIIB	C8166	0.4 µg/mL
OCCN1CCN(CC/C=C2\c3ccccc3Sc3ccc(C(F)(F)F)cc32)CC1	-	IIIB	MOLT-3	>10 µg/mL
COc1cc([C@@H]2c3cc4c(cc3[C@H](O)[C@H]3COC(=O)[C@H]23)OCO4)cc(OC)c1OC	-	IIIB	H9	<0.007 µM
Cc1cn([C@H]2C[C@H](N=[N+]=[N-])[C@@H](CO)O2)c(=O)[nH]c1=O	-	G-691 POST-AZT	CEM	2.02 µM
CCc1c(Sc2ccccc2)n(COCc2ccccc2)c(=O)[nH]c1=O	-	IIIB	CEM	0.011 µM
CCNc1cccnc1N1CCN(C(=O)c2cc3cc4c(cc3[nH]2)OCO4)CC1	-	IIIB	HT4lacZ-1/IIIB + HT4 LacZ-1	0.0098 µM
Nc1cc(OCCOCP(=O)(O)O)nc(N)n1	-	IIIB	CEM	3.1 µM
CCCCCN1CC[C@@H](c2ccc(F)cc2)[C@H](COc2ccc3c(c2)OCCO3)C1	-	IIIB	MOLT-3	>4 µg/mL
CCOCn1c(Cc2ccccc2)c(C(C)C)c(=O)[nH]c1=O	RT-V106A	IIIB	CEM	0.068 µg/mL
Cc1cc(S(N)(=O)=O)ccc1NC(=O)COc1ccc(Cl)cc1C(=O)c1cc(Cl)cc(C#N)c1	-	IIIB	C8166	0.0014 µM
CC(C)=CCN1Cc2cc(Cl)cc3[nH]c(=S)n(c23)C[C@@H]1C	RT-C181I	IIIB	CEM	≥15 µM
C[C@H](Cn1cnc2c(N)ncnc21)OCP(=O)(O)O	RT-K103N	IIIB	CEM	1.7 µg/mL
COc1ccc(/C=C/C(=O)O)cc1OC	-	IIIB	C8166	7.16 µM
C=C(C)OC(=O)N1c2cc(Cl)ccc2NC(=S)C1(C)C	RT-K103N	TIBO-2(RT-K103N)	CEM	0.18 µM
CN1C(=O)N(Cc2ccccc2)S(=O)(=O)c2cscc21	RT-E138K	-	CEM	≥324 µM
CCCCCCCCCCCCOCC(COP(=O)([O-])OCC[N+](C)(C)C)OCCCCCCCCCC	-	IIIB	CEM	0.64 µM
CCOc1ccccc1N1CCN(C(=O)c2cc3ccccc3[nH]2)CC1	-	IIIB	HT4lacZ-1/IIIB + HT4 LacZ-1	4.85 µM
COc1ccc(OC[C@@H]2CN(C)CC[C@H]2c2ccccc2)cc1	-	IIIB	MOLT-3	20 µg/mL
CCCCCCCCCCCC(=O)NCC(COP(=O)([O-])OCC[N+](C)(C)C)OCCCCCCCC	-	IIIB	CEM	0.19 µM
CC(C)=CCN1Cc2cc(Cl)cc3[nH]c(=S)n(c23)C[C@@H]1C	RT-Y188H	IIIB HEPT-resistant (RT Y188H)	CEM	≥5 µg/mL
C[C@H](Cn1cnc2c(N)ncnc21)OCP(=O)(O)O	-	IIIB	CEM	0.79 µg/mL
CC(C)(C)[Si](C)(C)OC[C@H]1O[C@@H](n2cnc3c(N)ncnc32)[C@H](O[Si](C)(C)C(C)(C)C)C12OS(=O)(=O)C=C2N	-	IIIB	C8166	0.4 µg/mL
CCCCCCCCCCCC(=O)NCC(COP(=O)([O-])OCCC[N+](C)(C)C)OCCCCCCCC	-	IIIB	CEM	1.02 µM
Cc1cn([C@H]2C[C@H](N=[N+]=[N-])[C@@H](CO)O2)c(=O)[nH]c1=O	-	IIIB	C8166	0.002 µM
COc1ncnc2c1ncn2[C@@H]1O[C@H](CO[Si](C)(C)C(C)(C)C)C2(OS(=O)(=O)C=C2N)[C@H]1O[Si](C)(C)C(C)(C)C	-	IIIB	C8166	0.7 µg/mL
N#Cc1c(N)nc(N)nc1OCCOCP(=O)(O)O	-	IIIB	CEM	11 µM
COc1ccc(S(=O)(=O)Nc2cc(Cl)ccc2OCC(=O)Nc2ccc(S(N)(=O)=O)cc2)cc1	-	IIIB	C8166	0.105 µM
O=C(O)c1cc(O)c(O)c(O)c1	-	IIIB	C8166	18.48 µM
CC(C)(C)[Si](C)(C)OC[C@H]1O[C@@H](n2cnc3[nH]c(=O)[nH]c(=O)c32)[C@H](O[Si](C)(C)C(C)(C)C)C12OS(=O)(=O)C=C2N	-	IIIB	C8166	0.4 µg/mL
CCc1cc(NCc2nc3c(Cl)ccc(Cl)c3o2)c(=O)[nH]c1C	RT-V106A P225H	Quin-0.1 (RT V106A P225H)	CEM	0.085 µM
C[C@H](Cn1cnc2c(N)ncnc21)OCP(=O)(O)O	gp120 T90I T188N T236A N289K T297I S334N T341I N386D	HHA-500SN (GP120-T90I T188N T236A N289K T297I S334N T341I N386D)	CEM	4.1 µg/mL
CC1(C)S[C@H]([C@H](NC(=O)Cc2ccccc2)C(=O)NCc2ccccc2)N[C@H]1C(=O)N[C@H](Cc1ccccc1)[C@H](O)CC(=O)NCc1ccccc1	-	RF	MT-4	2.9 µM
CCOCn1c(Sc2ccccc2)c(CC)c(=O)[nH]c1=S	RT-V106A	IIIB NEV(RT-V106A)	CEM	0.09 µg/mL
Nc1ccn([C@H]2CC[C@@H](CO)O2)c(=O)n1	-	-	HeLa + HELA CD4+	<0.1 µg/mL
CC(C)Nc1cccnc1N1CCN(C(=O)c2cc3ccccc3[nH]2)CC1	RT-Y181I	Pyr/BHAP(RT-Y181I)	CEM	6.6 µM
NS(=O)(=O)c1ccc(NC(=O)COc2ccc(Cl)cc2NS(=O)(=O)c2ccc(Cl)cc2)cc1	-	IIIB	C8166	0.452 µM
C[C@@H](Cn1cnc2c(N)ncnc21)OCP(=O)(O)O	-	HE	MOLT4 + MOLT-4	100 µM
Nc1ncnc2c1ncn2CCOCP(=O)(O)O	RT-A62V V75I F77L Q151M M184V	Clinical isolate HA20.17	CEM	9 µg/mL
COc1ccc(OC[C@H]2CNCC[C@@H]2c2ccccc2)cc1	-	IIIB	MOLT-3	>4 µg/mL
CCNc1cccnc1N1CCN(C(=O)c2cc3cc(OC)ccc3[nH]2)CC1	RT-Y181C	IIIB PYR(RT-Y181C)	CEM	0.4 µg/mL
N#CCN1C(=O)N(Cc2ccccc2)S(=O)(=O)c2cscc21	-	IIIB	CEM	1.2 µM
CCOc1ccccc1N1CCN(C(=O)c2cc3cc4c(cc3[nH]2)OCO4)CC1	-	IIIB	HT4lacZ-1/IIIB + HT4 LacZ-1	1.62 µM
CCc1cc(NCc2nc3c(Cl)ccc(Cl)c3o2)c(=O)[nH]c1C	RT-E138K	IIIB	CEM	0.86 µM
C[C@H](Cn1cnc2c(N)ncnc21)OCP(=O)(O)O	-	HE	CEM	17 µM
Cc1cc(O)cc(O)c1	-	IIIB	C8166	37.43 µM
CC(C)Nc1cccnc1N1CCN(C(=O)c2cc3ccccc3[nH]2)CC1	RT-C181I	IIIB	CEM	7.6 µM
Cc1ccnc2c1NC(=O)c1cccnc1N2C1CC1	-	IIIB	CEM	0.006 µg/mL
COc1cc(C[C@H]2C(=O)OC[C@@H]2Cc2ccc(OC)c(OC)c2)ccc1O	-	IIIB	H9	<0.13 µM
O=C(O)COc1cc(OCC(=O)O)c2cc1C(c1ccc(F)cc1)c1cc(c(OCC(=O)O)cc1OCC(=O)O)C(c1ccc(F)cc1)c1cc(c(OCC(=O)O)cc1OCC(=O)O)C(c1ccc(F)cc1)c1cc(c(OCC(=O)O)cc1OCC(=O)O)C2c1ccc(F)cc1	-	IIIB	CEM	≥20 µg/mL
COC(=O)[C@@H](NC(=O)Cc1ccccc1)[C@@H]1N[C@@H](C(=O)NCCNC(=O)[C@@H]2N[C@@H]([C@H](NC(=O)Cc3ccccc3)C(=O)OC)SC2(C)C)C(C)(C)S1	-	RF	MT-4	>100 µM
O=C(O[C@H]1CN2CC[C@H](O)[C@@H]2[C@@H](O)[C@@H]1O)c1ccco1	-	GB8	JM	1 µg/mL
Cc1cn([C@@H]2O[C@H](CO[Si](C)(C)C(C)(C)C)[C@@]3(OS(=O)(=O)C=C3N)[C@H]2O[Si](C)(C)C(C)(C)C)c(=O)[nH]c1=O	-	IIIB	CEM	0.05 µM
Cc1ccnc2c1NC(=O)c1cccnc1N2C1CC1	-	IIIB	CEM	0.12 µM
Cc1occc1C(=S)Nc1ccc(Cl)c(/C=N/OC(C)(C)C)c1	RT-Y188L	IIIB	CEM	0.65 µg/mL
CCCC(=O)O[C@H]1CN2CC[C@H](O)[C@@H]2[C@@H](O)[C@@H]1O	-	-	HeLa + HELA CD4+	<0.32 µg/mL
Nc1nc(N)c(Cc2c(N)nc(N)nc2OCCOCP(=O)(O)O)c(OCCOCP(=O)(O)O)n1	-	IIIB	CEM	80 µM
CN(C)CCC=C1c2ccccc2CCc2ccccc21	-	IIIB	MOLT-3	>10 µg/mL
Cc1cn([C@@H]2O[C@H](CO[Si](C)(C)C(C)(C)C)C3(OS(=O)(=O)C=C3N)[C@H]2O[Si](C)(C)C(C)(C)C)c(=O)n(C)c1=O	RT-L100I	IIIB BHAP(RT-L100I)	CEM	0.04 µg/mL
COc1ccc(C[C@H]2COC(=O)[C@@H]2Cc2ccc(O[C@@H]3O[C@H](CO)[C@@H](O)[C@H](O)[C@H]3O)c(OC)c2)cc1OC	-	IIIB	H9	<5 µM
NS(=O)(=O)c1ccc(NC(=O)COc2ccc(Cl)cc2NS(=O)(=O)c2ccccc2)cc1	-	IIIB	C8166	0.686 µM
CCCCCCCCCCCCOC(CNC(=O)CCCCCCCCCCC)COP(=O)([O-])OCC[N+](C)(C)C	-	IIIB	CEM	0.47 µM
Cc1cn([C@H]2C[C@H](N=[N+]=[N-])[C@@H](CO)O2)c(=O)[nH]c1=O	RT-E103K	IIIB	CEM	0.003 µg/mL
Cc1cc(S(N)(=O)=O)ccc1NC(=O)COc1ccccc1NS(=O)(=O)c1ccc(Cl)cc1	-	IIIB	C8166	0.667 µM
Nc1ccn([C@H]2CC[C@@H](CO)O2)c(=O)n1	-	IIIB	JM	0.05 µM
CC(C)=CCN1Cc2cc(Cl)cc3[nH]c(=S)n(c23)C[C@@H]1C	RT-K103N	TIBO-2(RT-K103N)	CEM	13 µM
Cc1cc(S(N)(=O)=O)ccc1NC(=O)COc1ccc(Cl)cc1NS(=O)(=O)c1ccccc1	-	IIIB	C8166	2.01 µM
CC(C)=CCN1Cc2cccc3[nH]c(=S)n(c23)C[C@@H]1C	-	IIIB	CEM	0.026 ± 0.006 µg/mL
COC(O)c1cc(O)c(O)c(O)c1	-	IIIB	C8166	16.2 µM
CCN1C(=O)N(Cc2ccccc2)S(=O)(=O)c2cscc21	-	NDK	MT-4	15.5 µM
C[C@H](COc1cc(N)nc(N)n1)OCP(=O)(O)O	RT-S68G K70T V75I F77L K103N F116Y Q151M K219R	Clinical isolate L6.5	CEM	20 µg/mL
Cc1occc1C(=S)Nc1ccc(Cl)c(C(=O)OC2CCCC2)c1	RT-M184V	IIIB	CEM	0.003 µg/mL
CCOCn1c(Sc2ccccc2)c(CC)c(=O)[nH]c1=O	-	IIIB	CEM	0.005 ± 0.002 µg/mL
c1cc2c(cc1[C@H]1OC[C@H]3[C@@H]1CO[C@@H]3c1ccc3c(c1)OCO3)OCO2	-	IIIB	H9	<8.2 µM
Cc1ccc(S(=O)(=O)Nc2ccccc2OCC(=O)Nc2ccc(S(N)(=O)=O)cc2)cc1	-	IIIB	C8166	0.61 µM

For reference, 5 entries again:

smiles	mutations	strain or isolate	cells	value
Nc1ccn([C@H]2CC[C@@H](CO)O2)c(=O)n1	-	IIIB	JM	0.05 µM
Nc1ncnc2c1ncn2CCOCP(=O)(O)O	RT-A62V V75I F77L Q151M M184V	Clinical isolate HA20.17	CEM	9 µg/mL
CN1C(=O)N(Cc2ccccc2)S(=O)(=O)c2cscc21	RT-E138K	-	CEM	≥324 µM
C[C@@H](Cn1cnc2c(N)ncnc21)OCP(=O)(O)O	-	HE	MOLT4 + MOLT-4	100 µM
CC(C)=CCN1Cc2cccc3[nH]c(=S)n(c23)C[C@@H]1C	-	IIIB	CEM	0.026 ± 0.006 µg/mL

Rows are shuffled and stem from different studies. ECn: concentration that inhibits the pathogen or its effect by n%.